From patent US20110142811A1

Target: CD46
Assay: cell-based or functional assay

Q: Which results are given for “unmodified measles virus hemagglutinin H (from UniProt P08362 1-617)”?
A: Nuclei/syncytium, BxPC-3 (nuclei per syncytium): 100; Nuclei/syncytium, Vero (nuclei per syncytium): > 100; Nuclei/syncytium, Vero-His (nuclei per syncytium): > 100
